## Share of PSTVd loop 6 variants by leaf site

The pool varies loop 6 of the PSTVd intermediate strain in the pattern UNNNCGNNNG; wild type is UGACCGCGAG (upper and lower strand joined, each 5' to 3', the first 5 letters being the upper strand, closing pairs included).

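A pool of all variants was put on leaves of three Nicotiana benthamiana plants. Progeny were sequenced from the inoculated region (day 5), the margin of the inoculated leaf (day 10) and systemic leaves (day 12).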

Values are reads per thousand in the sample; higher means more abundant, 0 means not found. Each value is the mean of three plants. "Pool" is the share in the plasmid pool used as inoculum, on the same scale. The inoculated region was read from the minus strand, the other sites from the plus strand.

sequence,pool,inoculated region,leaf margin,systemic leaves
CUUCCGAUUG,0.0131,0,0,0
GGACCGUGUG,0.0131,0.0239,0,0
GUCGCGAUGG,0.0131,0,0,0
UACGCGUAAG,0.105,0.0239,0,0
UAGGCGCACG,0.235,0.0837,0,0
UAGGCGUCAG,0.261,0.115,0,0
UAGUCGGACC,0.0131,0,0,0
UCACCGACUG,0.275,0.0766,0.0155,0
UCAGCGCGUG,0.183,0.0472,0,0.00684
UCAUCGUUGG,0.222,0.114,0,0
UCCACGUGGG,0.105,0.106,0.0169,0
UCCCCGCAGG,0.275,0.0942,0.00773,0
UCCGCGGAAG,0.0784,0.0598,0,0
UCCUCGUCCG,0.261,0.0657,0.00773,0
UCGGCGGUGG,0.314,0.100,0.0176,0
UCGUCGGUUG,0.353,0.102,0.00773,0
UCUCCGACGG,0.235,0.114,0.00773,0
UGAACGAGGG,0.118,0.114,0.0184,0
UGAACGCGGG,0.196,0.186,0.0169,0
UGACCGCGAA,0.0131,0.114,8.44,0.549
UGACCGGCUG,0.248,0.168,0.375,0.0205
UGACCGUUGG,0.458,0.204,0.530,0.806
UGCCCGGGCG,0.144,0.0954,0,0
UGGACGCGAG,0.222,0.317,0.150,0.0673
UGGCCGAUGG,0.366,0.179,0.00920,0
UGGUCGUUCG,0.353,0.0838,0,0
UGUGCGGUAG,0.379,0.101,0,0
UUAACGAGUG,0.183,0.101,0.00920,0
UUACCGAUCG,0.275,0.0905,0.00773,0
UUCACGUUAG,0.536,0.0416,0.00773,0
UUGCCGUAUG,0.405,0.0717,0.0998,0
UUGUCAGCGG,0.0131,0,0,0
UUGUCGAAAG,0.209,0.0833,0.0169,0
UUGUCGUCUG,0.458,0.113,0,0
UUUCCGGCUG,0.183,0.113,0.0556,0
UUUGCGGUUG,0.235,0.107,0.0155,0
UUUUCGGUCG,0.209,0.101,0,0
UUUUCGGUGG,0.170,0.113,0,0

4 of these entries, quoted again:

UUUCCGGCUG (pool 0.183) gave inoculated region 0.113; leaf margin 0.0556; systemic leaves 0.
UCAGCGCGUG (pool 0.183) gave inoculated region 0.0472; leaf margin 0; systemic leaves 0.00684.
UCCUCGUCCG (pool 0.261) gave inoculated region 0.0657; leaf margin 0.00773; systemic leaves 0.
UUGUCAGCGG (pool 0.0131) gave inoculated region 0; leaf margin 0; systemic leaves 0.

The authors trace changes outside the varied positions to PCR and sequencing errors or to mutation in the plant; presence does not show that a variant is infectious alone. Wild type was 20.7 per thousand in the pool and the most common sequence in every sample (inoculated region 195, 198, 203; leaf margin 629, 591, 734; systemic leaves 942, 870, 868). Samples held 36,220 to 57,551 reads, so the smallest values rest on one or two reads.

Reference: Wu et al. 2024, doi:10.1371/journal.ppat.1012142.